Pooled drug test results. Numbers come from NIAID ChemDB, via PubChem.

Shared fields: host protein counter-tests

ICn: concentration for n% inhibition. Inhibition is in % at the dose shown (toxicity tests: loss of growth or viability). Conditions beyond the fields shown may differ between rows. Blank or dashed fields: not listed here.

compound	organism	protein	method	read-out	dose	result
C=C1C(=O)C[C@@H]2/C=C(\COC(C)=O)CC/C=C(/C=O)[C@H](OC(C)=O)[C@@H](OC(=O)C(C)CC)[C@@H]12	Mus musculus	Dehydrogenase	MTT / absorbance	IC50		17.3 µg/mL
CCCCNC(=O)[C@H](C)C[C@H](O)[C@H](CC1CCCCC1)NC(=O)[C@@H](NC(=O)[C@H](CCCN)NC(=O)OCc1ccccc1)C(C)C		Pepsin		IC50		3.1 µM
O=c1oc(/C=C/c2cccnc2)ns1	Human	Proteasome	broth dilution / fluorescence	IC50		>10 µM
CCCCNC(=O)[C@H](C)C[C@H](O)[C@H](CC1CCCCC1)NC(=O)[C@@H](NC(=O)[C@H](Cc1cccc2ccccc12)NC(=O)OC(C)(C)C)C(C)C		Pepsin		IC50		0.8 µM
C[C@@]1(CO)[C@H](O)CC[C@@]2(C)[C@H]1CC[C@H]1C[C@@H]3C[C@@]12CC[C@]3(O)CO	Human	DNA polymerase epsilon	radiometric	IC50		5 µM
CCCCNC(=O)[C@H](C)C[C@H](O)[C@H](CC1CCCCC1)NC(=O)[C@@H](NC(=O)[C@H](CCC(N)=O)NC(=O)OC(C)(C)C)C(C)C		Pepsin		IC50		0.18 µM
CO[P@](=O)(c1cc(C)cc(/C=C/C#N)c1)c1c(C(N)=O)[nH]c2ccc(Cl)c(F)c12	Human	DNA polymerase gamma		IC50		118.5 µM
O=C1CN=C(c2ccccc2)c2ccccc2N1CCCCC1CC(Br)=NO1	Human	Cathepsin B	fluorescence	inhibition	20 µM	0%
CCc1nc(N)nc(N)c1OCCCOc1ccccc1CCC(=O)O	Human	Dihydrofolate reductase	absorbance	Ki		2.841 µM
C=CCN(C(=O)OCc1ccc([N+](=O)[O-])cc1)C1CCN(CC[C@](C)(CN(C)S(=O)(=O)c2ccccc2)c2ccccc2)CC1	Human	CCR1	radioligand binding / binding	IC50		>1 µM
COc1cc(-c2cc(=O)c3c(O)cc(O[C@@H]4O[C@H](CO)[C@@H](O)[C@H](O)[C@H]4OS(=O)(=O)O)cc3o2)ccc1O	Molluscum contagiosum virus	Topoisomerase		IC50		>200 µM
O=C1C=C(CF)C(=O)c2ccccc21	Human	Glutathione reductase		IC50		5.4 µM
CC1(C)S[C@@H]2[C@H](NC(=O)Cc3ccccc3)C(=O)N2[C@H]1C(=O)NCCNC(=O)[C@@H]1N2C(=O)[C@@H](NC(=O)Cc3ccccc3)[C@H]2SC1(C)C	Human	Renin	HPLC	IC50		>500 µM
C[N+]1(CC2CCCCCC2)CCC(NC(=O)C2c3cc(Cl)ccc3Oc3ccc(Cl)cc32)CC1	Human	CCR1		IC50		0.0198 µM
c1cc(CN2CCCNCCNCCCNCC2)ccc1CN1CCCNCCNCCCNCC1	Human	CXCR1	calcium flux	IC50		>25 µg/mL
Nc1nc(N)nc(-c2ccc(OCc3cccc(Cl)c3)cc2)n1	Human	Dihydrofolate reductase	absorbance	IC50		72.49 µM
CCNC(=O)[C@@H](NC(=O)Cc1ccccc1)[C@@H]1N[C@@H](C(=O)NCCNC(=O)[C@@H]2N[C@@H]([C@H](NC(=O)Cc3ccccc3)C(=O)NCC)SC2(C)C)C(C)(C)S1	Sus domesticus	Pepsin	nucleotide incorporation	IC50		>500 µM
CC[C@H]1C[C@]1(NC(=O)[C@@H]1C[C@@H]2CN1C(=O)[C@H](C(C)(C)C)NC(=O)OCC(C)(C)CCCCc1cccc3c1CN(C3)C(=O)O2)C(=O)NS(=O)(=O)C1CC1		Plasmin	substrate cleavage	IC90		>100 µM

The last 2 rows once more:

compound	organism	protein	method	read-out	dose	result
CCNC(=O)[C@@H](NC(=O)Cc1ccccc1)[C@@H]1N[C@@H](C(=O)NCCNC(=O)[C@@H]2N[C@@H]([C@H](NC(=O)Cc3ccccc3)C(=O)NCC)SC2(C)C)C(C)(C)S1	Sus domesticus	Pepsin	nucleotide incorporation	IC50		>500 µM
CC[C@H]1C[C@]1(NC(=O)[C@@H]1C[C@@H]2CN1C(=O)[C@H](C(C)(C)C)NC(=O)OCC(C)(C)CCCCc1cccc3c1CN(C3)C(=O)O2)C(=O)NS(=O)(=O)C1CC1		Plasmin	substrate cleavage	IC90		>100 µM